{"source": "patent US20030091594A1", "key": {"[1]": {"target": "CD4-induced (CD4i) monoclonal antibody 17b", "experiment": "SPR (BIACORE 2000), MAb 17b amine-coupled to CM5 chip, gp120 premixed with saturating sCD4 as analyte, 25 C"}, "[2]": {"target": "CD4-induced (CD4i) monoclonal antibody 48d", "experiment": "SPR (BIACORE 2000), MAb 48d amine-coupled to CM5 chip, gp120 premixed with saturating sCD4 as analyte, 25 C"}, "[3]": {"target": "CD4-induced (CD4i) monoclonal antibody 17b", "experiment": "SPR (BIACORE 2000), MAb 17b on the chip"}}}
{"substance": "8x gp120 pre-incubated with soluble CD4 (from UniProt P01730 26-394)", "values": [{"measurement": "koff", "setting": "[1]", "value": 0.0009, "unit": "s⁻¹"}, {"measurement": "kon", "setting": "[1]", "value": 200000, "unit": "M⁻¹ s⁻¹"}, {"measurement": "Kd", "setting": "[2]", "value": 2, "unit": "nM"}, {"measurement": "fold increase of on-rate against 8x gp120 without sCD4", "setting": "[3]", "value": 2, "unit": "fold"}]}
